Measurements reported in PubChem BioAssay AID2170 (The Scripps Research Institute Molecular Screening Center, 2009).
The list shows a part of the results, in another mix than the full data. Calls of active or inactive are those of the source.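 The calls were made as follows: active = mean inhibition over replicate wells above the hit cutoff set for the earlier primary screen (cut at about 29% in these data); inactive = the rest.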

tested on: M18 aspartyl aminopeptidase (Plasmodium falciparum 3D7); experiment: PfM18AAP inhibitors, malaria aminopeptidase, confirmation, biochemical, QFRET, recombinant enzyme, triplicate (AID 2170); conditions: H-Glu-NHMec fluorogenic cleavage, at 7.35 µM, active compounds read high;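 also: 0% = median of test compound wells and 100% = 2 mM ZnCl2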
In short: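 system = purified recombinant M18 aspartyl aminopeptidase (PFM18AAP) from Plasmodium falciparum | reagent = H-Glu-NHMec fluorogenic substrate | dosing = one concentration, 7.35 µM final | incubation = Enzyme–compound pre-incubation 30 min, substrate reaction 90 min, both 25 °C | technique = fluorescence 340/450 nm at 0 and 90 min | controls = ZnCl2 inhibitor control | replication = triplicate wells per compound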

Structure (SMILES) | inhibition
Cc1nc2ccc3ccccc3c2o1.O=[N+]([O-])c1cc([N+](=O)[O-])c(O)c([N+](=O)[O-])c1 | inactive: 11.7%
CP(=S)(Nn1cnnc1)Oc1ccccc1 (configuration not stated) | active: 43%
